A mixed list of measured activities; the numbers were collected in NIAID ChemDB.

All rows: growth or infection tests; organism: Rhinovirus; measure: EC50

ECn: concentration that inhibits the pathogen or its effect by n%. Lines come from different laboratories, so protocols vary.

CCOC(=O)c1ccc(OCCC2CCN(c3ccc(C)nn3)CC2)cc1 ; strain or isolate: Serotype 39 (group B) ; read by: cytopathic effect ; cell line: HELA-OHIO ; value: 0.02 µM
Cc1ccc(Cn2cnc3c(Nc4cccc(F)c4)nc(C(F)(F)F)nc32)cc1 ; strain or isolate: Serotype 4 ; read by: plaque count ; cell line: M-HELA ; value: 180 µM
Cc1ccccc1Cn1cnc2c(N(C)C)nc(C(F)(F)F)nc21 ; strain or isolate: Serotype 19 ; read by: plaque count ; cell line: M-HELA ; value: >8 µM
CSc1nsc(-c2ccc(OCCCOc3ccccc3)cc2)c1C#N ; strain or isolate: Serotype 15 (group B) ; read by: cytopathic effect ; cell line: HELA-OHIO ; value: >20 µM
CCOC(=O)/C=C/[C@H](C[C@@H]1CCNC1=O)NC(=O)[C@@H](CC(=O)[C@@H](NC(=O)c1cc(C)on1)C(C)C)Cc1ccc(F)cc1 ; strain or isolate: Isolate 5 ; read by: cytopathic effect / visual reading ; cell line: OHIO HELA-I ; value: 0.03 µg/mL
CN(C)c1nc(C(F)(F)F)nc2c1ncn2Cc1cccc(F)c1 ; strain or isolate: Serotype 3 ; read by: plaque count ; cell line: M-HELA ; value: >8 µM
CSc1nsc(-c2ccc(OCCCCOc3ccc(C#N)cc3)cc2)c1C#N ; strain or isolate: Serotype 9 (group B) ; read by: cytopathic effect ; cell line: HELA-OHIO ; value: >2 µM
CN(C)c1nc(C(F)(F)F)nc2c1ncn2Cc1ccc(S(C)(=O)=O)cc1 ; strain or isolate: Serotype 18 ; read by: plaque count ; cell line: M-HELA ; value: >8 µM
Cc1cc(CCCCCOc2c(Cl)cc(C3=NCCO3)cc2Cl)on1 ; strain or isolate: TYPE 32 ; read by: plaque count ; cell line: HeLa ; value: 0.15 µg/mL
CN(C)c1nc(C(F)(F)F)nc2c1ncn2Cc1ccc(F)cc1 ; strain or isolate: Serotype 2 ; read by: plaque count ; cell line: M-HELA ; value: >8 µM
CCOC(=O)c1ccc(OCCCCOc2ccc(-c3snc(SC)c3C#N)cc2)cc1 ; strain or isolate: Serotype 42 (group A) ; read by: cytopathic effect ; cell line: HELA-OHIO ; value: >2 µM
CN(C)c1nc(C(F)(F)F)nc2c1ncn2Cc1ccc(C(F)(F)F)cc1 ; strain or isolate: Serotype 13 ; read by: plaque count ; cell line: M-HELA ; value: >8 µM
Fc1cccc(Cn2cnc3c(Nc4cccc(F)c4)nc(C(F)(F)F)nc32)c1 ; strain or isolate: Serotype 1B ; read by: plaque count ; cell line: M-HELA ; value: 0.43 µM
CCOC(=O)c1ccc(OCCC2CCN(c3ccc(C)nn3)CC2)cc1 ; strain or isolate: thompson (ICAM-1 receptor group 6 ; read by: neutral red ; cell line: KB ; value: 0.054 µM
CSc1nsc(-c2ccc(OCCCCOc3ccccc3)cc2)c1C#N ; strain or isolate: Serotype 2 (group B) ; read by: cytopathic effect ; cell line: HELA-OHIO ; value: >20 µM

Again, the opening 2 rows:

CCOC(=O)c1ccc(OCCC2CCN(c3ccc(C)nn3)CC2)cc1 ; strain or isolate: Serotype 39 (group B) ; read by: cytopathic effect ; cell line: HELA-OHIO ; value: 0.02 µM
Cc1ccc(Cn2cnc3c(Nc4cccc(F)c4)nc(C(F)(F)F)nc32)cc1 ; strain or isolate: Serotype 4 ; read by: plaque count ; cell line: M-HELA ; value: 180 µM